Assay results published in publication PMC10975748, “Report from the 29th Meeting on Toxinology, “Toxins: From the Wild to the Lab”, Organized by the French Society of Toxinology on 30 November–1 December 2023” (Toxins, 2024).

System: anti-TTX monoclonal antibody
Experiment: Cross-reactivity factors, magnetic bead-based immunoassay
Type: binding

## 11-norTTX-6(S)-ol
  cross-reactivity (cross-reactivity factors, CRFs): highest cross-reactivity

## 11-deoxyTTX
  cross-reactivity (cross-reactivity factors, CRFs): highest cross-reactivity

## 6,11-dideoxyTTX
  cross-reactivity (cross-reactivity factors, CRFs): lower
